A mixed list of measured activities; the numbers were collected in NIAID ChemDB.

Common to all: whole-cell or culture tests; agent: Cryptococcus neoformans

ECn: concentration that inhibits the pathogen or its effect by n%.

| SMILES | strain or isolate | method | endpoint | result |
|---|---|---|---|---|
| CCC(C)CC(C)CCCCCCCCC(=O)N[C@H]1C[C@@H](O)[C@H](NCCN)NC(=O)[C@@H]2[C@@H](O)CCN2C(=O)[C@H]([C@H](O)CCN)NC(=O)[C@H]([C@H](O)[C@@H](O)c2ccc(O)cc2)NC(=O)[C@@H]2C[C@@H](O)CN2C(=O)[C@H]([C@@H](C)O)NC1=O | B 36203 | broth dilution | MIC | 8 µg/mL |
| CN[C@H]1CC[C@@H](c2ccc(Cl)c(Cl)c2)c2ccccc21 | 99BC1-40 | broth dilution | MIC90 | 4 µg/mL |
| CCC(C)CC(C)CCCCCCCCC(=O)N[C@H]1C[C@@H](O)[C@H](NCCN)NC(=O)[C@@H]2[C@@H](O)CCN2C(=O)[C@H]([C@H](O)CCN)NC(=O)[C@H]([C@H](O)[C@@H](O)c2ccc(O)cc2)NC(=O)[C@@H]2C[C@@H](O)CN2C(=O)[C@H]([C@@H](C)O)NC1=O | 19 isolates | - | MIC | 1 µg/mL |
| OC(Cn1cncn1)(Cn1cncn1)c1ccc(F)cc1F | TIMM0362 | - | MIC | 25 µg/mL |
| C[C@@H](n1ncn(-c2ccc(OCC(F)(F)C(F)F)cc2)c1=O)[C@](O)(Cn1cncn1)c1ccc(F)cc1F | DUMC 125.96 | - | MIC | ≤0.0313 µg/mL |
| Oc1ccccc1C=Nc1ccccc1O | 96806 | broth dilution | MIC | 8 µg/mL |
| C[C@@H](c1nc(-c2ccc(C#N)cc2)cs1)[C@](O)(Cn1cnnc1)c1ccc(F)cc1F | 32 isolates | - | MIC90 | 0.016 µg/mL |
| COC1CC2CCC(C)C(O)(O2)C(=O)C(=O)N2CCCCC2C(=O)OC(C(C)CC2CCC(O)C(OC)C2)CC(=O)C(C)/C=C(\C)C(O)[C@@](OC)(N(O)C(=O)OCC(C)C)C(=O)C(C)CC(C)/C=C/C=C/C=C/1C | WILD TYPE | - | MIC | >100 µg/mL |
| O=C1C(OS(=O)(=O)c2ccc(Br)cc2)C(c2ccccc2)N1c1ccccc1 | AH27/A | - | MIC | 3.27 µM |
| COc1ccc(/C=C2\CS(=O)(=O)c3ccccc3C2=O)cc1 | 93/V | - | MIC | 25 µg/mL |
| OC(Cn1cncn1)(Cn1nnc(CCN2CCN(c3ccc(Cl)cc3)CC2)n1)c1ccc(F)cc1F | LA314 | - | MIC | >16 µg/mL |
| C[C@@H](n1cnc2cc(Cl)ccc2c1=O)[C@](O)(Cn1cncn1)c1ccc(F)cc1F | Isolate 124.96 | - | MFC | 20 µg/mL |
| CCOC(=O)c1c(C)nc(NCCCCNc2ccnc3cc(Cl)ccc23)nc1-c1ccccc1 | ATCC 62066 | - | MIC99 | 8 µg/mL |
| COc1ccc(N2C(=O)C(O)C2c2ccccc2)cc1 | AH27/A | - | MIC | 11.15 µM |
| OC(Cn1cncn1)(Cn1nnnc1CCN1CCN(c2ccccc2)CC1)c1ccc(F)cc1F | LA314 | - | MIC | >16 µg/mL |
| Oc1ccccc1N=Cc1ccccc1 | 96806 | broth dilution | MIC | 5.7 µg/mL |
| COc1ccc(-c2c(C#N)c(OC)nc3c2CSc2ccccc2-3)cc1OC | Farwania | - | MIC | 3 µg/mL |
| COc1cc(O)c2c(c1)C(=O)c1c(cc3c(c1O)-c1c(cc(C)c(C(=O)NCC(=O)O)c1O)[C@H](OC1OC(C)C(N(C)C)C(OC4OCC(O)C(O)C4O)C1O)[C@H]3O)C2=O | CS-01 | - | MIC | 3.1 µg/mL |
| O=C1/C(=C/c2ccccc2[N+](=O)[O-])CCc2ccccc21 | Farwania | - | MIC | 100 µg/mL |
| CCC(C)n1ncn(-c2ccc(N3CCN(c4ccc(OC[C@H]5CO[C@](Cn6cncn6)(c6ccc(Cl)cc6Cl)O5)cc4)CC3)cc2)c1=O | H99 | - | MIC | 0.008 µg/mL |
| CC(=O)O[C@@H]1C(=O)N(c2ccc(C(=O)O)cc2)[C@H]1c1ccccc1 | AH27/A | - | MIC | 154 µM |
| CCC(C)n1ncn(-c2ccc(N3CCN(c4ccc(OC[C@H]5CO[C@](Cn6cncn6)(c6ccc(Cl)cc6Cl)O5)cc4)CC3)cc2)c1=O | Clinical isolate (IM 042074) | broth dilution | MIC | <0.015 µg/mL |
| COC(=O)c1ccc(N2C(=O)C(OC(C)=O)C2c2ccc(F)cc2)cc1 | AH27/A | - | MIC | 35.01 µM |
| OC(Cn1cncn1)(Cn1nnc(CCN2CCN(c3ccccc3Cl)CC2)n1)c1ccc(F)cc1F | LA314 | - | MIC | 4 µg/mL |
| COc1ccc2c(c1)C(=O)/C(=C/c1ccc3c(c1)CC3)CO2 | 25 | - | MIC | 25 µg/mL |
| N#CC1=C(c2ccccc2)C2=C(NC1O)c1ccccc1SC2 | Farwania | - | MIC | 12.5 µg/mL |
| Oc1cccc(C=Nc2ccccc2O)c1 | WP | broth dilution | MIC | 4 µg/mL |
| C=CC[C@@H]1/C=C(/C)C[C@H](C)C[C@H](OC)[C@H]2O[C@@](O)(C(=O)C(=O)N3CCCC[C@H]3C(=O)O[C@H](/C(C)=C/[C@@H]3CC[C@@H](O)[C@H](OC)C3)[C@H](C)[C@@H](O)CC1=O)[C@H](C)C[C@@H]2OC | H99 | - | MIC | <0.09 µg/mL |
| CCCCCOc1ccc(-c2cc(-c3ccc(C(=O)N[C@H]4C[C@@H](O)[C@@H](O)NC(=O)[C@@H]5[C@@H](O)[C@@H](C)CN5C(=O)[C@H]([C@H](O)CC(N)=O)NC(=O)[C@H]([C@H](O)[C@@H](O)c5ccc(O)c(OS(=O)(=O)O)c5)NC(=O)[C@@H]5C[C@@H](O)CN5C(=O)[C@H]([C@@H](C)O)NC4=O)cc3)no2)cc1 | 5 isolates | - | MIC90 | >64 µg/mL |
| OC(Cn1cncn1)(Cn1nnnc1CCN1CCN(c2cccc(Cl)c2)CC1)c1ccc(F)cc1F | LA314 | - | MIC | >16 µg/mL |
| COc1ccccc1C1C(C#N)=C(N)OC2=C1CSc1ccccc12 | Farwania | - | MIC | 12.5 µg/mL |
| Oc1ccccc1N=Cc1ccc(F)cc1 | ATCC 62066 | - | MIC99 | 1.4 µg/mL |
| COc1cc(C2C(C#N)=C(N)OC3=C2CSc2ccccc23)ccc1O | 93/V | - | MIC | 3 µg/mL |
| C[C@H]([C@](O)(Cn1cncn1)c1ccc(F)cc1F)S(C)(=O)=O | R717 (AZOLE-R) | - | EC50 | 2 µM |
| Cc1ccc(/C=C2\CCc3ccccc3C2=O)cc1 | 93/V | - | MIC | 25 µg/mL |
| C=C1CO[C@H]2[C@@H](C)OC(OC[C@@]34C[C@H]5[C@H](C)CC[C@@H]5[C@@]5(C=O)C[C@@H]3C=C(C(C)C)[C@@]45C(=O)O)C[C@@H]12 | 16 strains (serotype D) | - | Mean MIC | 0.5 µg/mL |
| COc1ccc(/C=C2\COc3ccccc3C2=O)cc1 | Farwania | - | MIC | 100 µg/mL |
| COc1ccccc1-c1c(C#N)c(OC)nc2c1CSc1ccc(Cl)cc1-2 | 25 | - | MIC | 6 µg/mL |
| COC(=O)[C@H]1[C@@H]2C[C@@H](O[C@@H]3O[C@H](C)[C@@H](O)[C@H](N)[C@@H]3O)/C=C/C=C/C=C/C=C/C=C/C=C/C=C/[C@H](C)[C@@H](O)[C@H](C)[C@H](C)OC(=O)C[C@H](O)C[C@H](O)[C@@H](O)CC[C@H](O)C[C@H](O)C[C@](O)(C[C@@H]1O)O2 | 42 isolates (HIV+) | - | Mean MIC | 0.026 µg/mL |
| O=[N+]([O-])c1ccc(C=Nc2ccccc2O)cc1 | 28JF | broth dilution | MIC | 11.3 µg/mL |
| Cn1nc(Cc2ccc(Cl)cc2)c2ccccc2c1=O | Clinical isolate (IM 972724) | broth dilution | MIC | 3.9 µg/mL |
| N=C(N)c1ccc2nc(-c3ccc(-c4nc5ccc(C(=N)N)cc5[nH]4)[nH]3)[nH]c2c1 | H99 | - | MFC | 0.78 µg/mL |
| CCOC(=O)c1c(C)nc(NCCCCNc2ccnc3cc(Cl)ccc23)nc1-c1ccccc1[N+](=O)[O-] | ATCC 62066 | - | MIC99 | 8 µg/mL |
| Cc1ccc(/C=C2\CSc3ccccc3C2=O)cc1 | Farwania | - | MIC | 100 µg/mL |
| NCCNC(=O)C1=Nc2ccc(NC(=O)C3=Nc4ccc(C(=O)Nc5ccc6[nH]c(C(=O)NCCN)cc6c5)cc4C3)cc2C1 | Serotype D | - | MFC | 8 µg/mL |
| N#CC1=C(N)OC2=C(CSc3ccc(Cl)cc32)C1c1ccc2c(c1)OCO2 | Farwania | - | MIC | 6 µg/mL |
| O=C1/C(=C/c2ccc(Cl)cc2)CCc2ccccc21 | Farwania | - | MIC | 6 µg/mL |
| CCCCCOc1ccc(-c2cc(-c3ccc(C(=O)N[C@H]4C[C@@H](O)[C@@H](O)NC(=O)[C@@H]5[C@@H](O)[C@@H](C)CN5C(=O)[C@H]([C@H](O)CC(N)=O)NC(=O)[C@H]([C@H](O)[C@@H](O)c5ccc(O)c(OS(=O)(=O)O)c5)NC(=O)[C@@H]5C[C@@H](O)CN5C(=O)[C@H]([C@@H](C)O)NC4=O)cc3)no2)cc1 | FMR 8401 | - | MIC | 64 µg/mL |
| Oc1ccccc1N=Cc1cccc(O)c1O | ATCC 28957 | broth dilution | MIC | 4 µg/mL |
| N#CC1=C(N)OC2=C(CSc3ccccc32)C1c1cccc2ccccc12 | Farwania | - | MIC | 12.5 µg/mL |
| COC1CC2CCC(C)C(O)(O2)C(=O)C(=O)N2CCCCC2C(=O)OC(C(C)CC2CCC(O)C(OC)C2)CC(=O)C(C)/C=C(\C)[C@@](O)(c2ccc(C)s2)C(OC)C(=O)C(C)CC(C)/C=C/C=C/C=C/1C | TOR1-1 | - | MIC | >100 µg/mL |

Repeating the final 7 entries:

SMILES	strain or isolate	method	endpoint	result
NCCNC(=O)C1=Nc2ccc(NC(=O)C3=Nc4ccc(C(=O)Nc5ccc6[nH]c(C(=O)NCCN)cc6c5)cc4C3)cc2C1	Serotype D	-	MFC	8 µg/mL
N#CC1=C(N)OC2=C(CSc3ccc(Cl)cc32)C1c1ccc2c(c1)OCO2	Farwania	-	MIC	6 µg/mL
O=C1/C(=C/c2ccc(Cl)cc2)CCc2ccccc21	Farwania	-	MIC	6 µg/mL
CCCCCOc1ccc(-c2cc(-c3ccc(C(=O)N[C@H]4C[C@@H](O)[C@@H](O)NC(=O)[C@@H]5[C@@H](O)[C@@H](C)CN5C(=O)[C@H]([C@H](O)CC(N)=O)NC(=O)[C@H]([C@H](O)[C@@H](O)c5ccc(O)c(OS(=O)(=O)O)c5)NC(=O)[C@@H]5C[C@@H](O)CN5C(=O)[C@H]([C@@H](C)O)NC4=O)cc3)no2)cc1	FMR 8401	-	MIC	64 µg/mL
Oc1ccccc1N=Cc1cccc(O)c1O	ATCC 28957	broth dilution	MIC	4 µg/mL
N#CC1=C(N)OC2=C(CSc3ccccc32)C1c1cccc2ccccc12	Farwania	-	MIC	12.5 µg/mL
COC1CC2CCC(C)C(O)(O2)C(=O)C(=O)N2CCCCC2C(=O)OC(C(C)CC2CCC(O)C(OC)C2)CC(=O)C(C)/C=C(\C)[C@@](O)(c2ccc(C)s2)C(OC)C(=O)C(C)CC(C)/C=C/C=C/C=C/1C	TOR1-1	-	MIC	>100 µg/mL

Lines come from different laboratories, so protocols vary. MIC50, MIC90 and the like: level of inhibition, or share of isolates inhibited. Blank or dashed fields: not listed here.